# Test results as given in PubChem BioAssay AID2314 (National Center for Advancing Translational Sciences (NCATS), 2010).
# Values joined by “and” are separate entries in the source; they are usually repeats but may differ in a detail not shown here. Equal values may be shown once. The list shows a part of the results, in another mix than the full data. Active and inactive are the calls of the source. No stated cut-off is given here; in the data, active means max response mostly above about 13% (no sharp cut-off); inactive means mostly below about 14%.
# Assay: Cycloheximide Counterscreen for Small Molecule Inhibitors of Shiga Toxin; further: read at 38.3 µM for the half of the compounds with a filed dose; 0% is about no effect
# Details: cell reporter, cycloheximide protein synthesis inhibition counterscreen; stronger effect = higher value
row,Compound,max response
1,Nc1cccc([As](=O)(O)c2ccccc2)c1,inactive: -2.16%
2,Cc1ccc(OCC(=O)OC2CN3CCC2CC3)cc1 (stereo not drawn),inactive: -2.1%
3,O=[As](O)(c1cccs1)c1cccs1,inactive: 1.75%
4,O=P1(Nc2ccc(Br)cn2)COc2ccccc2OC1,inactive: 4.46%
5,O=P1(Nc2ncccn2)COc2ccccc2OC1,inactive: -3.79%
6,CN(C)C1(CNC(=O)c2ccc(S(C)(=O)=O)cc2)CCCCC1,inactive: -1.67%
7,O=C(/C=C/c1ccccc1)OC1CN2CCC1CC2 (stereo not drawn),inactive: 13.8%
8,CC1CCC(C(C)C)C(OP(=O)(Nc2ccccn2)c2ccccc2)C1 (stereo not drawn),inactive: -1.27%
9,Cc1ccc(C(=O)OC2CN3CCC2CC3)cc1 (stereo not drawn),inactive: -9.14%
10,Cc1nn(-c2ccccc2)c2c1P(=O)(N1CCOCC1)N(C)C(c1ccccc1)=N2 (stereo not drawn),inactive: -2.52%
11,CC(C)/C=N\N=C(\N)N[N+](=O)[O-],inactive: 5.14%
12,CN(C(=O)Cc1ccc(Cl)c(Cl)c1)[C@@H]1CCCC[C@H]1N1CCCC1,inactive: -11.2%
13,O=[As](O)(c1ccccc1Br)c1ccccc1Br,inactive: 8.5%
14,CC(C)(C)C(=O)NC(Sc1ncccn1)C(Cl)(Cl)Cl (stereo not drawn),inactive: 8.66%
15,Clc1n[nH]nc1-c1nn[nH][15n]1,inactive: -0.85%
16,CCOP(=O)(NC(=NC(C)c1ccccc1)NC(C)c1ccccc1)OCC (stereo not drawn),inactive: 4.3%
17,O=P1(Nc2ccccn2)COc2ccccc2OC1,inactive: -2.38%
18,CCC1=CC2Cc3nc4ccc(Cl)cc4c(N)c3C(C1)C2 (stereo not drawn),inactive: -5.22%
19,CCOP(=O)(Nc1ccc(C)cn1)OCC,inactive: 1.19%
20,CCOP(=O)(Nc1cccc2ccccc12)OCC,inactive: -3.84%
21,COc1cc(C2NCCC3(OCCO3)C2(C)C)cc(OC)c1OC (stereo not drawn),inactive: -3.9%
22,Nc1cccc2c([As](=O)(O)O)cccc12,inactive: -3.66%
23,CCCOP(=S)(Nc1nc(N)cc(=O)[nH]1)OCCC,inactive: 0.135%
24,Cc1cccc(OCC(=O)OC2CN3CCC2CC3)c1 (stereo not drawn),inactive: -3.65%
25,O=[As](O)(c1cccc(O)c1)c1cccc(O)c1,inactive: -2.82%
26,O=C(OC1CN2CCC1CC2)c1ccc(Cl)cc1 (stereo not drawn),inactive: -2.8%

row,Compound,max response
1,CS(=O)(=O)c1ccc(Cl)c(NC(=O)COC(=O)C(O)(c2ccccc2)c2ccccc2)c1,inactive: -0.935%
2,O=[As](O)(O)c1cccnc1,inactive: -0.709%
3,COc1cc(C(=O)NCC2(N3CCOCC3)CCCCC2)cc(Cl)c1OC(C)C,inactive: -0.753%
4,CCOP1(=S)c2c(C)nn(CCC#N)c2N=C(c2ccc(F)cc2)N1C (stereo not drawn),inactive: 5.54%
5,CN(C(=O)Cc1ccccc1)[C@@H]1CC[C@]2(CCCO2)C[C@H]1N1CCCC1,inactive: -5.3%
6,O=[N+]([O-])c1ccc2c(c1)nnn2O,inactive: -1.56%
7,NC(=O)Nc1ccc([As](=O)(O)O)cc1,inactive: -3.66%
8,Nc1ccccc1[As](=O)(O)c1ccccc1,inactive: 1.28%
9,O=C(O)COc1ccc([As](=O)(O)O)cc1[N+](=O)[O-],inactive: 3.36%
10,O=P(Nc1nccs1)(Oc1ccccc1)Oc1ccccc1,inactive: 7.01%
11,O=P(Nc1nccs1)(c1ccccc1)c1nc2ccccc2s1 (stereo not drawn),active: 9.95%
12,CCOP1(=S)c2c(C)nn(CCC#N)c2N=C(c2ccccc2F)N1C (stereo not drawn),inactive: -2.97%
13,O=[N+]([O-])c1cc([N+](=O)[O-])c(-c2ccn[nH]2)s1,inactive: 12.1%
14,CC(C)NC(=O)NP(=O)(Oc1ccccc1)Oc1ccccc1,inactive: 5.81%
15,CCN(CC)C(=S)SC(NC=O)C(Cl)(Cl)Cl (stereo not drawn),inactive: -4.22%
16,ClCCSc1nnc(-c2cccnc2)o1,active: 35.7%
17,CC(C)c1ccc(OP(=O)(Nc2ccccn2)Oc2ccccc2F)cc1 (stereo not drawn),inactive: 6.54%
18,Cc1ccc(OP(=O)(Nc2ccc([N+](=O)[O-])cn2)Oc2ccc(C)cc2)cc1,inactive: 0.661%
19,Cc1ccc2nc3c(c(C)c2c1)CC(C(Cl)Cl)S3 (stereo not drawn),active: 18.9%
20,C[As](=O)(O)c1cccc(C(=O)O)c1,inactive: -0.814%
21,O=[As](O)(c1ccc(O)cc1)c1ccccc1O,inactive: -1.31%
22,COc1ccc(N/C(=N/P(=O)(N2CCOCC2)N2CCOCC2)N2CCOCC2)cc1,inactive: -1.77%
23,COc1cc(I)ccc1[As](=O)(O)O,inactive: -2.26%
24,COc1ccc2nc(NP(=O)(c3ccccc3)c3ccccc3)sc2c1,inactive: -2.42%
25,Cc1c2c(nc3ccccc13)SC(C(Cl)Cl)C2 (stereo not drawn),inactive: 17.6%
26,Cc1cc(=O)[nH]c(N[N+](=O)[O-])n1,inactive: -2.06%

row,Compound,max response
1,O=C(OC1CN2CCC1CC2)C12CC3CC(CC(C3)C1)C2 (stereo not drawn),inactive: -1.69%
2,CCC(C)N(CC(C)C)C(=S)SC(NC(C)=O)C(Cl)(Cl)Cl (stereo not drawn),inactive: 2.23%
3,CCOP(=O)(Nc1cccc2cccnc12)OCC,inactive: 4.24%
4,O=C(OC1CN2CCC1CC2)c1cccc([N+](=O)[O-])c1 (stereo not drawn),inactive: -0.471%
5,CCOC(=O)c1ccc(NC(=O)C(C)(CCl)SC)cc1 (stereo not drawn),active: 26.3%
6,O=C(Nc1ccncc1[N+](=O)[O-])c1ccc([N+](=O)[O-])cc1[N+](=O)[O-],inactive: -1.6%
7,O=C(COc1ccccc1)OC1CN2CCC1CC2 (stereo not drawn),inactive: 7.83%
8,COP1(=S)c2c(C)nn(CCC#N)c2N=C(c2ccc(F)cc2)N1C (stereo not drawn),inactive: -1.81%
9,O=P(Nc1ccccn1)(c1cccc2ccccc12)c1cccc2ccccc12,inactive: 2.53%
10,Cc1cc(SC(NC=O)C(Cl)(Cl)Cl)ncn1 (stereo not drawn),inactive: 4.26%
11,O=[N+]([O-])c1ccc(Nc2ccc(Oc3ccc([N+](=O)[O-])cc3[N+](=O)[O-])cc2)c([N+](=O)[O-])c1,inactive: -2.09%
12,CCOC(=O)Nc1cccc([As](=O)(O)O)c1,inactive: -3.13%
13,Cc1cc(SC(NC(=O)c2ccccc2)C(Cl)(Cl)Cl)nc(C(C)C)n1 (stereo not drawn),inactive: -0.818%
14,CCCCOc1ccc(C(=O)NCC2(N3CCCCC3)CCCCC2)cc1OC,inactive: -5.37%
15,CCOC(=O)Nc1ccc([As](=O)(O)O)c(O)c1,inactive: 0.186%
16,O=C(O)CNc1ccc([As](=O)(O)O)cc1,inactive: -6.95%
17,O=[N+]([O-])c1cccc(NC2=NCC(CBr)S2)c1 (stereo not drawn),inactive: 1.04%
18,CC(C)(C)C(=O)NC(Sc1ccncn1)C(Cl)(Cl)Cl (stereo not drawn),inactive: 0.945%
19,O=C(Nc1cc([As](=O)(O)O)ccc1O)c1ccccc1,inactive: 0.741%
20,CC(=O)C1=CCCC2CCC1N2 (stereo not drawn),inactive: -1.72%
21,CC1CCN(C(=O)Oc2c(Cl)cc(Cl)c3cccnc23)CC1,inactive: 12.9%
22,CN(C)C(=O)OCCc1n(C)cc[n+]1C,inactive: 0.865%
23,CCN(/C(=N/P(=O)(N1CCOCC1)N1CCOCC1)N1CCOCC1)c1ccc(OC)cc1,inactive: 1.26%
24,Nc1ccc([As](=O)(O)c2ccc(N)cc2)cc1,inactive: -0.656%
25,Cc1ccc(NP(=O)(Oc2ccccc2)Oc2ccccc2)nc1,inactive: 4.86%
26,O=[N+]([O-])c1cccc2n[nH]nc12,inactive: -1.24%

row,Compound,max response
1,CC(=O)N1C2C3N(C(C)=O)C1C1N(C(C)=O)C(C(N1C(C)=O)N3C(C)=O)N2C(C)=O,inactive: -2.68%
2,COc1ccc(C2=NCC(CBr)S2)cc1 (stereo not drawn),inactive: 26.3%
3,O=C(NC(Sc1ccncn1)C(Cl)(Cl)Cl)c1ccccc1 (stereo not drawn),inactive: -1.7%
4,Cc1c2non([O-])c-2c(C)[n+](=O)[n+]1[O-],inactive: 9.49%
5,Oc1ccccc1CNc1ccccn1,inactive: 12.2%
6,CC(C)CC(=O)NC(Sc1ccc(Cl)cc1)C(Cl)(Cl)Cl (stereo not drawn),inactive: -2.2%
7,CN1CCCC(OC(=O)C(c2ccccc2)c2ccccc2)C1 (stereo not drawn),inactive: 7.31%
8,Clc1ccc(Cl)c(NC2=NCC(CBr)S2)c1 (stereo not drawn),inactive: 5.35%
9,Cc1ccc(OP(=O)(Nc2nccs2)Oc2ccc(C)cc2)cc1,inactive: -2.9%
10,COc1ccccc1OP(=O)(Nc1ccc(C)cn1)Oc1ccccc1OC,inactive: -2.59%
11,Cc1ccc(N/C(=N/P(=O)(N2CCOCC2)N2CCOCC2)N2CCOCC2)cc1,inactive: 9.85%
12,NC(=O)c1cc([N+](=O)[O-])cc([N+](=O)[O-])c1N,inactive: -2.26%
13,Nc1cccc2ccc([As](=O)(O)O)cc12,inactive: -7.51%
14,Cc1ccc(NP(=O)(Oc2ccccc2F)Oc2ccccc2F)nc1,inactive: -1.76%
15,CN(C(=O)Cc1ccc(Cl)c(Cl)c1)[C@H]1CCCC[C@@H]1N1CCCC1,inactive: -6.12%
16,Cc1cc(SC(NC(=O)c2ccc(F)cc2)C(Cl)(Cl)Cl)ncn1 (stereo not drawn),inactive: -3.14%
17,CCOP(=O)(Nc1ccccc1)OCC,inactive: -2.98% and inactive: -1.71%
18,O=P(Nc1nc2ccc(Cl)cc2s1)(c1ccccc1)c1ccccc1,inactive: -1.41%
19,CC(=O)Nc1ccc([As](=O)(O)O)cc1,inactive: -5.82%
20,O=C(O)c1ccccc1[As](=O)(O)O,inactive: 4.49%
21,CN(C)C(=O)Oc1noc2ccccc12,inactive: -1.76%
22,Cc1ccccc1OP(=O)(Nc1ccccn1)Oc1ccccc1C,inactive: -3.67%
23,CCC(=O)N1C2C3N(C(=O)CC)C1C1N(C(=O)CC)C(C(N1C(=O)CC)N3C(=O)CC)N2C(=O)CC,inactive: -0.471%
24,O=C(OC1CN2CCC1CC2)c1ccccc1 (stereo not drawn),inactive: -1.75%
25,CC(=O)NC(SC(=S)N(CC(C)C)CC(C)C)C(Cl)(Cl)Cl (stereo not drawn),inactive: -3.33%
